Measured values as given in the supplement of paper PMC9931576.
Human monoclonal antibodies against the spike receptor-binding domain (heavy:light variable regions). IC50 against pseudoviruses bearing the spike of naturally observed variants; lower = stronger; >10 µg/ml means not reached at the top dose. No active / inactive call. The stated detection limit is 0.0005 µg/ml; values near or below 0.001 µg/ml lie at the floor of the assay.

What was measured:
Assay in all cases: pseudovirus neutralization IC50; higher = weaker neutralization
[1] = molecular target: SARS-CoV-2 Omicron BA.1 spike pseudovirus
Protocol: (§1)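 Single-round VSV luciferase pseudovirus mixed with antibody dilutions for 1 h and put on Huh-7 cells for about a day; IC50 from the dose curve.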

[2] = molecular target: SARS-CoV-2 Omicron BA.2 spike pseudovirus
Protocol: as §1

[3] = molecular target: SARS-CoV-2 Omicron BA.2.75 spike pseudovirus
Protocol: as §1

[4] = molecular target: SARS-CoV-2 Omicron BA.5 spike pseudovirus
Protocol: as §1

[5] = molecular target: SARS-CoV-2 Omicron BQ.1.1 spike pseudovirus
Protocol: as §1

[6] = molecular target: SARS-CoV-2 Omicron XBB spike pseudovirus
Protocol: as §1

[7] = molecular target: SARS-CoV-2 early D614G spike pseudovirus
Protocol: as §1

Row | Binder | pseudovirus neutralization IC50 [1] | pseudovirus neutralization IC50 [2] | pseudovirus neutralization IC50 [3] | pseudovirus neutralization IC50 [4] | pseudovirus neutralization IC50 [5] | pseudovirus neutralization IC50 [6] | pseudovirus neutralization IC50 [7]
1 | BD56-198 (protein) chain 1: QITLKESGPTLVKPTQTLTLTCTFSGFSLSTSGVSVGWIRQPPGKALEWLALIYWDDDKRYSPSVKSRLTLTKDTSKKQVVLTMTNVDPVDTATYYCVLKDYYGSGRSLNWGYFDYWGQGTLVTVSS chain 2: DIQMTQSPSSLSASVGDRVTLTCRASQSINMYLNWYQQIPGEAPKLLIYAASSLQSGVPSRFSGSGSGTDFTLTITSLQAEDFATYYCQQSYSNVYTFGQGTKLEIK | 4.07 µg/mL | 5.84 µg/mL | 2.7 µg/mL | 3.9 µg/mL | 2.88 µg/mL | 2.93 µg/mL | 2.47 µg/mL
2 | BD56-197 (protein) chain 1: EVQLVESGGGLVKPGGSLRLSCAASGFTFSTYSMNWVRQAPGKGLEWVSFIGTSSNHIYYADSVKGRFIISRDNAKNSVYLQMNSLRAEDTAVYYCARDNEWLEWSSMDVWGQGTTVTVSS chain 2: EIVLTQSPGTLSLSPGERATLSCRASQSVSSSYLAWYQQKPGQAPRLVIYGALSRAIGIPDRFSGSGSGTDFTLTISRLEPEDFAVYYCQQDGGSRYTFGQGTKLEIK | 2.23 µg/mL | 3.74 µg/mL | 3.15 µg/mL | 3.84 µg/mL | 4.05 µg/mL | 3.98 µg/mL | 3.03 µg/mL
3 | BD56-183 (protein) chain 1: QVQLVESGGGVVQPGRSLRLSCAASGFTFSIYAMHWVRQAPGKGLEWVSVISYDESNEYYADSVKGRFTISRDNSKNTLYLQMNSLRVEDTAMYYCARDRSLGDVSALTTGCPENWGQGTRVTVSS chain 2: DIQMTQSPSSLSASVGDRVTITCQASQDISNYLNWYQQKPGKAPKLLIYDASNLKTGVPSRFSGSGSGTEFTFTISSLQPEDVATYYCQQYHNLPPLTFGGGTKVEIK | 9.72 µg/mL | > 10 µg/mL | > 10 µg/mL | > 10 µg/mL | > 10 µg/mL | > 10 µg/mL | > 10 µg/mL
4 | BD56-194 (protein) chain 1: QVQLVQSGAEVKKPGSSVRVSCKASGDTFRGHAISWVRQAPGQGLEWMGGIIPMFGRPNYAQKFKGRVTITADKSTNTAYMELTSLRSEDTAVYYCAGVASGMTVGDPRTAGDYWGQGTLVTVSS chain 2: QSVLTQPPSVSAAPGQKVTISCSGSSSNIGNHYVSWYQQLPGSAPKLLISDDNKRPSGIPDRFSGSKSGTSATLGITGLRTGDEADYYCGTWDNGLRAWVFGGGTKLTVL | > 10 µg/mL | > 10 µg/mL | > 10 µg/mL | > 10 µg/mL | > 10 µg/mL | > 10 µg/mL | > 10 µg/mL
5 | BD56-181 (protein) chain 1: QVHLVQSGSELKKPGASVRVSCKASGYTFTDYSMNWVRQAPGQGLEWLGWINTNTGIPRYAQGFTGRFVFSLDTSVSTAYLHINSLKSEDTAVYYCARVWSYWNDASDAFDIWGQGTRVTVSS chain 2: QSALTQPASVSGSPGQSITISCTGTSSDVGSYDLVSWFQQHPGKAPKLMIYEGNKRPSGIPNRFSGSKSGNTASLTISGLQADDEANYYCCSFARSTTWVFGGGTKLTVL | 1.64 µg/mL | 1.91 µg/mL | 1 µg/mL | 3.36 µg/mL | > 10 µg/mL | > 10 µg/mL | 1.3 µg/mL
6 | BD56-199 (protein) chain 1: DVQLVQSGAEVRNPGESLMISCKVSGYNFATYWIGWVRQMSGKGLEWMGIIYPGDSETRYSPSFQGQVTISVDKSISTAYLQWTSLKASDTAMYYCVRDLCGGDCPFDYWGQGTLVTVSS chain 2: EIVLTQSPATLSLSPGERATLSCGASQSVSSSYLAWYQQKPGLAPRLLIYDTSIRATGIPDRFSGSGSGTDFTLTISRLEPEDFAVYYCQQYGASPRFSFGQGTKLETK | > 10 µg/mL | > 10 µg/mL | > 10 µg/mL | > 10 µg/mL | > 10 µg/mL | > 10 µg/mL | > 10 µg/mL
